These results are taken from US5180831A (priority 1990, dated 1993).

Experiment [1] is described as follows: Oral pretreatment against GD in mice, 24 h survival. The note with it: for % survival: oral.
Experiment [2] is described as follows: Intramuscular pretreatment against GD in mice, 24 h survival.

Each structure is given as a SMILES string.

As for `CN(C)C(=O)Oc1ccc[n+](C)c1` [Pyr, Pyridostigmine], the survival in words result in experiment [1] (pyridostigmine alone, 120 min prior to challenge) is “no survival”.

As to `CN(C)C(=O)Oc1ccc(C=NO)[n+](C)c1`, the “% survival” value in experiment [2] (15 min, 37 μmol/kg) is 90%; in experiment [2] (60 min, 9.0 μmol/kg), 90%.

In the case of `COc1ccc(CON=Cc2c(OC(=O)N(C)C)ccc[n+]2C)cc1`, the “% survival” value in experiment [1] (120 min, 2.2 μmol/kg) is given as 100%.

With `CN(C)C(=O)Oc1ccc[n+](C)c1C=NNC(N)=O`, the “% survival” value in experiment [2] (15 min, 0.2 μmol/kg) is reported as 50%; in experiment [2] (15 min, 0.6 μmol/kg), 80%; in experiment [2] (15 min, 2.3 μmol/kg) it was 80%; in experiment [2] (60 min, 0.2 μmol/kg), 90%; in experiment [2] (60 min, 0.6 μmol/kg), 100%; in experiment [2] (60 min, 2.3 μmol/kg), 80%.

`C[n+]1ccccc1C=NNC(=O)C[n+]1ccccc1` [Compound 5b, 2-(1-Methyl-2-pyridinemethylene)-1-[2-(1-pyridinium)acetyl]hydrazine dichloride]: in experiment [2] (60 min, 96 μmol/kg), the “% survival” value was determined as 100%.

Turning to `CN(C)C(=O)Oc1ccc[n+](C)c1C=NNC(=O)Nc1ccccc1`, the “% survival” value in experiment [2] (15 min, 0.65 μmol/kg) was 90%; in experiment [2] (15 min, 2.7 μmol/kg), 90%; in experiment [2] (15 min, 11 μmol/kg), 40%; in experiment [1] (30 min, 10 μmol/kg), 70%; in experiment [1] (120 min, 10 μmol/kg), 100%.
